The text below walks through data of patent US8722123B2, “Antimicrobial composition and use as food treatment” (priority 2008, dated 2014).

The assay has as its system E. coli O157:H7.

For `CC(=O)CCC(=O)O` [0.5% levulinic acid (pH 2.6), levulinic acid], the “E. coli O157:H7 counts at 0 min” value is 7.0 log CFU/ml, the “E. coli O157:H7 counts at 1 min” value turned out to be 6.7 log CFU/ml, the “E. coli O157:H7 counts at 2 min” value was determined as 6.8 log CFU/ml and the “E. coli O157:H7 counts at 5 min” value was found to be 6.7 log CFU/ml. The “E. coli O157:H7 counts at 10 min” value is 6.9 log CFU/ml, the “E. coli O157:H7 counts at 20 min” value is 6.8 log CFU/ml, the “E. coli O157:H7 counts at 30 min” value worked out at 6.8 log CFU/ml and the “E. coli O157:H7 counts at 60 min” value is listed as 6.4 log CFU/ml.
Consider `CCCCCCCCCCCCOS(=O)(=O)[O-].[Na+]` [0.05% sodium dodecyl sulfate (pH 4.4), sodium dodecyl sulfate], for which the “E. coli O157:H7 counts at 0 min” value turned out to be 7.1 log CFU/ml, the “E. coli O157:H7 counts at 1 min” value was 6.9 log CFU/ml, the “E. coli O157:H7 counts at 2 min” value came to 7.1 log CFU/ml and the “E. coli O157:H7 counts at 5 min” value was found to be 7.0 log CFU/ml. Further, the “E. coli O157:H7 counts at 10 min” value is on record as 6.9 log CFU/ml, the “E. coli O157:H7 counts at 20 min” value was found to be 6.9 log CFU/ml, the “E. coli O157:H7 counts at 30 min” value worked out at 7.1 log CFU/ml and the “E. coli O157:H7 counts at 60 min” value was determined as 7.0 log CFU/ml.
